Pooled drug test results. Numbers come from NIAID ChemDB, via PubChem.

Common to all: enzyme or target tests

Inhibition is in % at the dose shown (toxicity tests: loss of growth or viability). ICn: concentration for n% inhibition. Conditions beyond the fields shown may differ between rows. An empty or dashed field is not shown.

smiles	strain	dose	target	read-out	agent	method	result
COc1c(N2CCN(CN3C(=O)C(=Nc4ccc(S(=O)(=O)Nc5ncccn5)cc4)c4ccccc43)C(C)C2)c(F)cc2c(=O)c(C(=O)O)cn(C3CC3)c12			Gyrase	IC50	Mycobacterium tuberculosis		8 µM
Cc1ccc(C)n1-c1cc(C(=O)O)ccc1O			Protein tyrosine phosphatase A	Ki	Mycobacterium tuberculosis		1.9 µM
COc1cc(C(=O)NS(=O)(=O)c2ccccc2C)ccc1Cc1cn(C)c2ccc(NC(=O)OC3CCCC3)cc12			Lsr2	Ki	Mycobacterium tuberculosis	binding	13.9 µM
Cc1ccc(C)n1-c1ccc(C(=O)O)cc1O			Protein tyrosine phosphatase A	Ki	Mycobacterium tuberculosis		18 µM
CO[C@H]1CN(c2nc(-c3ncn(C)n3)c(C(=O)O)s2)CC[C@H]1NC(=O)c1[nH]c(C)c(Br)c1Cl	H37Rv		DNA gyrase holoenzyme	IC50	Mycobacterium tuberculosis	gel	<0.005 µM
Nc1nc(N)c2cc(COC(=O)c3ccsc3)ccc2n1			Dihydrofolate reductase	IC50	Mycobacterium avium		0.18 µM
O=c1sn(-c2ccc(F)c(Cl)c2)c(=O)n1C1Cc2ccccc2C1	mc2155		Alanine racemase	IC50	Mycobacterium smegmatis	HPLC	>100 µM
COc1c(N2CCN(Cn3c(O)c(N=NC(N)=S)c4cc(Cl)ccc43)C(C)C2)c(F)cc2c(=O)c(C(=O)O)cn(C3CC3)c12			Gyrase	IC50	Mycobacterium tuberculosis		4 µM
CCCCCCCCCCCC[C@H]1OC(=O)[C@H](COCc2ccccc2)NC(=O)[C@H](C(C)O)NC(=O)[C@H](C(C)C)NC(=O)[C@H]1C			Protein tyrosine phosphatase A	IC50	Mycobacterium tuberculosis		8.8 µM
O=C1NC(=O)C2C(N1)N(C[C@H](O)[C@H](O)[C@H](O)CO)C(=O)N2CCCOP(=O)(O)O			Lumazine synthase	Ki	Mycobacterium tuberculosis		4.5 µM
C=CC/C=C(\C)c1ccc(C2=N/C(=C\c3ccc(CCCCC=C)[nH]3)C(OC)=C2)[nH]1			Protein tyrosine phosphatase A	IC50	Mycobacterium tuberculosis		28.7 µM
O=C(Nc1cccc([N+](=O)[O-])c1)c1ccc2ccccc2c1O			Thiamin phosphate synthase	IC50	Mycobacterium tuberculosis		100 µg/mL
NNC(=O)c1ccncc1	H37Rv	1000 µM	Alpha-ketoglutarate dehydrogenase	inhibition	Mycobacterium tuberculosis		0%
Cc1cn([C@@H]2C[C@H](O)[C@@H](CNC(=S)Nc3ccccc3)O2)c(=O)[nH]c1=S			TMPKmt	Ki	Mycobacterium tuberculosis	absorbance	50 µM
O=c1[nH]c(=O)c2[nH]c(=O)n(C[C@H](O)[C@H](O)[C@H](O)CO)c2[nH]1			Lumazine synthase	Ki	Mycobacterium tuberculosis		9.1 µM
O=C(O)c1c2n(c3cc(N4CCN(C(c5ccccc5)c5ccc(Cl)cc5)CC4)c([N+](=O)[O-])cc3c1=O)CS2	ATCC 14468 MC2		DNA gyrase	IC50	Mycobacterium smegmatis	gel	50 µg/mL
CC(=O)Nc1ccc(-n2c(C)ccc2C)c(C(=O)O)c1			Protein tyrosine phosphatase A	Ki	Mycobacterium tuberculosis		25 µM
C[C@H]1COC2(CCN(c3nc(=O)c4cc(C(F)(F)F)cc([N+](=O)[O-])c4s3)CC2)O1			Cytochrome P450 2C9	IC50	Mycobacterium tuberculosis	fluorescence / absorbance	4.99 µM
Cc1cc(C)cc(C(=O)OCc2ccc3nc(N)nc(N)c3c2)c1			Dihydrofolate reductase	IC50	Mycobacterium avium		0.1 µM
O=c1sn(-c2ccc([N+](=O)[O-])cc2Cl)c(=O)n1C1Cc2ccccc2C1	H37Rv		Alanine racemase	IC50	Mycobacterium tuberculosis	HPLC	0.05 µM
Cc1ccc(C(F)(F)F)cc1CNCc1cc(C(=N)C2CC2)c(Nc2ccccc2)[nH]c1=O			Decaprenylphosphoryl-D-ribose oxidase	IC50	Mycobacterium tuberculosis	fluorescence	0.01 µM
Cn1c(=O)sn(-c2ccccc2)c1=O	H37Rv		Alanine racemase	IC50	Mycobacterium tuberculosis	HPLC	0.29 µM
CCCOc1ccc(OCC)cc1NCc1cnc2nc(N)nc(N)c2c1C			Dihydrofolate reductase	IC50	Mycobacterium avium complex		0.0089 µM
O=C1NC(=O)C2C(N1)N(C[C@H](O)[C@H](O)[C@H](O)CO)C(=O)N2CCCCCOP(=O)(O)O			Lumazine synthase	Ki	Mycobacterium tuberculosis		4.7 µM
O=C(O)[C@H]1/C(=C/CO)O[C@@H]2CC(=O)N21	TB2		Beta-lactamase	IC50	Mycobacterium tuberculosis		0.5 µg/mL
Cc1noc(C)c1-n1sc(=O)n(-c2ccc(F)cc2)c1=O	H37Rv		Alanine racemase	IC50	Mycobacterium tuberculosis	HPLC	0.07 µM
Nc1nc(N)c2cc(COC(=O)c3ccccc3-c3ccccc3)ccc2n1			Dihydrofolate reductase	IC50	Mycobacterium avium		0.32 µM
CCN(CC)c1nc(Cl)nc(Nc2ccc3cc(-c4ccccc4)c(=O)oc3c2)n1			Thiamin phosphate synthase	IC50	Mycobacterium tuberculosis		>100 µg/mL
CCOC(=O)c1cccc(-n2sc(=O)n(C3Cc4ccccc4C3)c2=O)c1	mc2155		Alanine racemase	IC50	Mycobacterium smegmatis	HPLC	>100 µM
Nc1nc(N)c2cc(COC(=O)c3c4ccccc4cc4ccccc34)ccc2n1			Dihydrofolate reductase	IC50	Mycobacterium avium		1 µM
Cc1cccc(Cl)c1-n1sc(=O)n(CC2CC2)c1=O	mc2155		Alanine racemase	IC50	Mycobacterium smegmatis	HPLC	>100 µM
CCn1cnc(-c2nc(N3CC[C@@H](NC(=O)c4[nH]c(C)c(Cl)c4Br)[C@@H](OC)C3)sc2C(=O)O)n1	H37Rv		DNA gyrase holoenzyme	IC50	Mycobacterium tuberculosis	gel	<0.005 µM
Cn1cc(/C=C2/C(=O)N3C(C(=O)[O-])CSC23)nn1.[Na+]	TB2		Beta-lactamase	IC50	Mycobacterium tuberculosis		0.0001 µg/mL
O=C(O)c1c2n(c3cc(N4CCN(C(=O)c5ccco5)CC4)c([N+](=O)[O-])cc3c1=O)CS2	ATCC 14468 MC2		DNA gyrase	IC50	Mycobacterium smegmatis	gel	50 µg/mL
Cc1cn([C@@H]2O[C@H](CO)[C@@H](O)[C@H]2O)c(=O)[nH]c1=O			Thymidylate kinase	Ki	Mycobacterium tuberculosis		715 µM
COc1c(N2CCN(Cn3c(O)c(N=NC(N)=S)c4cc(C)ccc43)C(C)C2)c(F)cc2c(=O)c(C(=O)O)cn(C3CC3)c12			Gyrase	IC50	Mycobacterium tuberculosis		10 µM
Cc1ccc(C)n1-c1ccc(C(=O)O)c(C(=O)O)c1			Protein tyrosine phosphatase A	Ki	Mycobacterium tuberculosis		11 µM
CCO[C@H]1CN(c2nc(-c3ncn(C)n3)c(C(=O)O)s2)CC[C@H]1NC(=O)c1[nH]c(C)c(Cl)c1Br	H37Rv		DNA gyrase holoenzyme	IC50	Mycobacterium tuberculosis	gel	<0.005 µM
Nc1nc(N)c2cc(COC(=O)c3ccc(-c4ccccc4)cc3)ccc2n1			Dihydrofolate reductase	IC50	Mycobacterium avium		1.5 µM
COc1c(N2CCN(CN3C(=O)C(=Nc4ccc(S(=O)(=O)Nc5ncccn5)cc4)c4cc(C)ccc43)C(C)C2)c(F)cc2c(=O)c(C(=O)O)cn(C3CC3)c12			Gyrase	IC50	Mycobacterium tuberculosis		3 µM
Nc1nc(N)c2cc(COC(=O)c3cccc(I)c3)ccc2n1			Dihydrofolate reductase	IC50	Mycobacterium avium		0.05 µM
COc1cc(NCc2cnc3nc(N)nc(N)c3c2C)cc(OC)c1			DHFR	IC50	Mycobacterium avium complex		0.00064 µM
O=C(O)c1c2n(c3cc(N4CCN(Cc5ccc6c(c5)OCO6)CC4)c([N+](=O)[O-])cc3c1=O)CS2	ATCC 14468 MC2		DNA gyrase	IC50	Mycobacterium smegmatis	gel	>50 µg/mL
O=C(Nc1cccc([N+](=O)[O-])c1)c1cc2ccccc2cc1O			Thiamin phosphate synthase	IC50	Mycobacterium tuberculosis		70 µg/mL
COc1c(N2CCN(Cn3c(O)c(N=NC(N)=S)c4cc(F)ccc43)C(C)C2)c(F)cc2c(=O)c(C(=O)O)cn(C3CC3)c12			Gyrase	IC50	Mycobacterium tuberculosis		8 µM
Nc1nc(N)c2cc(COC(=O)c3cccc4ccccc34)ccc2n1			Dihydrofolate reductase	IC50	Mycobacterium avium		0.078 µM

4 of the rows above, restated:

smiles	strain	dose	target	read-out	agent	method	result
CCn1cnc(-c2nc(N3CC[C@@H](NC(=O)c4[nH]c(C)c(Cl)c4Br)[C@@H](OC)C3)sc2C(=O)O)n1	H37Rv		DNA gyrase holoenzyme	IC50	Mycobacterium tuberculosis	gel	<0.005 µM
CCCCCCCCCCCC[C@H]1OC(=O)[C@H](COCc2ccccc2)NC(=O)[C@H](C(C)O)NC(=O)[C@H](C(C)C)NC(=O)[C@H]1C			Protein tyrosine phosphatase A	IC50	Mycobacterium tuberculosis		8.8 µM
COc1c(N2CCN(CN3C(=O)C(=Nc4ccc(S(=O)(=O)Nc5ncccn5)cc4)c4ccccc43)C(C)C2)c(F)cc2c(=O)c(C(=O)O)cn(C3CC3)c12			Gyrase	IC50	Mycobacterium tuberculosis		8 µM
CCN(CC)c1nc(Cl)nc(Nc2ccc3cc(-c4ccccc4)c(=O)oc3c2)n1			Thiamin phosphate synthase	IC50	Mycobacterium tuberculosis		>100 µg/mL